Columns and labels:
[1] = molecular target: Human immunodeficiency virus type 1 reverse transcriptase (Human immunodeficiency virus 1, UniProt Q72547); experiment: Inhibition of HIV1 recombinant wild type reverse transcriptase by SPA heteropolymeric assay
[2] = molecular target: Human immunodeficiency virus type 1 reverse transcriptase (Human immunodeficiency virus 1, UniProt Q72547, K103N/Y181C); experiment: Inhibition of HIV1 recombinant reverse transcriptase K103N/Y181C double mutant by SPA heteropolymeric assay
[3] = molecular target: Human immunodeficiency virus type 1 reverse transcriptase (Human immunodeficiency virus 1, UniProt Q72547, Y188L); experiment: Inhibition of HIV1 recombinant reverse transcriptase Y188L mutant by SPA heteropolymeric assay

## Cc1cc(C#N)cc(C)c1Oc1nc(Nc2ccc(C#N)cc2)nc(N)c1Br [ETRAVIRINE]
[1]
  IC50: 26 nM
[2]
  IC50: 19 nM
[3]
  IC50: 108 nM

Source: ChEMBL document CHEMBL1255200, “Exploration of piperidine-4-yl-aminopyrimidines as HIV-1 reverse transcriptase inhibitors. N-Phenyl derivatives with broad potency against resistant mutant viruses” (Bioorg Med Chem Lett, 2010)
